Pooled drug test results. Numbers come from NIAID ChemDB, via PubChem.

Shared fields: tests on isolated targets

Blank or dashed fields: not listed here. Fold resistance: result on the changed form divided by that on wild type. Inhibition is in % at the dose shown (toxicity tests: loss of growth or viability). ICn is the concentration giving n% inhibition. Rows are shuffled and stem from different studies. Two numbers with a dash give a range or band.

compound,endpoint,strain or isolate,changes,dose,read by,protein,organism,value
NS(=O)(=O)c1ccc(CCNc2nnc(NC(=O)c3ccc(Cl)c(Cl)c3)s2)cc1,IC50,,,,,Polymerase,Human cytomegalovirus,<25 µM
CC(C)=CCOc1cc(NC(=S)c2ccoc2C)ccc1Cl,IC50,,RT-N137K,,nucleotide incorporation / radiometric,Reverse transcriptase,HIV,0.04 µM
CCCCCCCC/C=C/CCCCCCCC(=O)Nc1nnc(NCc2cccs2)s1,IC50,,,,,Polymerase,Human cytomegalovirus,<25 µM
CN(CC(C)(CCN1CCC(N(CCO)C(=O)OCc2ccc([N+](=O)[O-])cc2)CC1)c1ccsc1)S(=O)(=O)c1ccccc1,fold resistance,,CCR5-Y108A,,radiometric,CCR5,,375
O=c1cn[nH]c(=S)[nH]1,inhibition,RH,,2000 µM,,Uracil phosphoribosyltransferase,Toxoplasma gondii,<5%
Cc1cn([C@@H]2O[C@H](CO[Si](C)(C)C(C)(C)C)[C@@]3(OS(=O)(=O)C=C3N)[C@H]2O[Si](C)(C)C(C)(C)C)c(=O)[nH]c1=O,fold resistance,,RT-N137K,,nucleotide incorporation / radiometric,Reverse transcriptase,HIV,1.3
Cc1ccccc1S(=O)(=O)Nc1cc(-c2cccc([N+](=O)[O-])c2)sc1C(=O)O,IC50,,,,,NS3 ATPase,Hepatitis C virus,<5 µM
O=C(Nc1nnc(NCc2cccs2)s1)c1ccc2c(c1)C(=O)OC2=O,IC50,,,,,Polymerase,Human cytomegalovirus,<25 µM
Cc1cc(S(=O)(=O)Nc2cc(-c3ccccc3)sc2C(=O)O)c(C)cc1Cl,IC50,,,,,NS3 ATPase,Hepatitis C virus,5–20 µM
CCOc1ccc2ccccc2c1C(=O)Nc1nnc(NCCc2cnc[nH]2)s1,IC50,,,,,Polymerase,Human cytomegalovirus,<25 µM
Cc1cn([C@@H]2O[C@H](CO[Si](C)(C)C(C)(C)C)C3(OS(=O)(=O)C=C3N)[C@H]2O[Si](C)(C)C(C)(C)C)c(=O)n(C)c1=O,fold resistance,,RT-N137A,,nucleotide incorporation / radiometric,Reverse transcriptase,HIV,0.56
O=C(O)C(F)P(=O)(O)O,IC50,,,,,DNA polymerase,Herpes simplex virus 2,3.8 µM
Cc1cc(=O)[nH]c(=S)[nH]1,Ki,RH,,,,Uracil phosphoribosyltransferase,Toxoplasma gondii,1900 µM
CCN(C(=O)OCc1ccccc1)C1CCN(CC[C@](C)(CN(C)S(=O)(=O)c2ccccc2)c2ccccc2)CC1,fold resistance,,CCR5-D276A,,radiometric,CCR5,,5.75
CCOc1ccc2ccccc2c1C(=O)Nc1nnc(NCCCn2ccnc2)s1,IC50,,,,,Polymerase,Human cytomegalovirus,>25 µM
CC(Br)(C(=O)O)P(=O)(O)O,inhibition,,,100 µM,,DNA polymerase,Epstein-Barr virus,50%
O=C(Nc1nnc(NCc2cccs2)s1)c1c(Cl)cccc1Cl,IC50,,,,,Polymerase,Human cytomegalovirus,<25 µM
S=c1cc[nH]c(=S)[nH]1,Ki,RH,,,,Uracil phosphoribosyltransferase,Toxoplasma gondii,250 µM
O=C(O)c1sc(-c2ccccc2)cc1N(CC1CCNCC1)C(=O)c1ccc(Cl)cc1Cl,IC50,,,,,NS3 ATPase,Hepatitis C virus,<5 µM
O=c1ccn(Cc2ccccc2)c(=O)[nH]1,IC50,RH,,,,Uracil phosphoribosyltransferase,Toxoplasma gondii,>2000 µM
CCCCCCCC/C=C/CCCCCCCC(=O)Nc1nnc(NCCc2cccs2)s1,IC50,,,,,Polymerase,Human cytomegalovirus,<25 µM
O=C(O)C(Cl)(Br)P(=O)(O)O,inhibition,,,100 µM,,DNA polymerase,Epstein-Barr virus,33%
NC1CCC(N(C(=O)c2ccc(Cl)cc2Cl)c2cc(-c3ccccc3)sc2C(=O)O)CC1.O=C([O-])C(F)(F)F,IC50,,,,,NS3 ATPase,Hepatitis C virus,<5 µM
CCOC(=O)c1c[nH]c(=O)[nH]c1=O,inhibition,RH,,2000 µM,,Uracil phosphoribosyltransferase,Toxoplasma gondii,<5%
CO[P@](=O)(c1cc(C)cc(/C=C/C#N)c1)c1c(C(N)=O)[nH]c2ccc(Cl)c(F)c12,IC50,,L1001/K103N,,,Reverse transcriptase,HIV,0.43 µM
O=P(O)(O)C(F)P(=O)(O)O,IC50,,,,,DNA polymerase,Herpes simplex virus 2,>100 µM
O=C(c1ccccc1)N1C[C@H](CN2CCC(c3ccccc3)CC2)[C@@H](c2ccccc2)C1,fold resistance,,CCR5-Y108A,,radiometric,CCR5,,16.5
O=C1NC(=O)C([N+](=O)[O-])C(=O)N1,inhibition,RH,,2000 µM,,Uracil phosphoribosyltransferase,Toxoplasma gondii,<5%
O=C(O)C(Br)P(=O)(O)O,inhibition,,,100 µM,,DNA polymerase,Herpes simplex virus 2,88%

Repeating the final 2 entries:

compound,endpoint,strain or isolate,changes,dose,read by,protein,organism,value
O=C1NC(=O)C([N+](=O)[O-])C(=O)N1,inhibition,RH,,2000 µM,,Uracil phosphoribosyltransferase,Toxoplasma gondii,<5%
O=C(O)C(Br)P(=O)(O)O,inhibition,,,100 µM,,DNA polymerase,Herpes simplex virus 2,88%